Results on one sequence are retold here after PMC5542705.

For some assays here: Tags and fusion partners may be left off the protein sequences shown.

The test system of one series is Mst12 + Tpc1. The series is described as follows: EMSA. The conditions noted are these: recombinant protein; label: biotin-11-UTP 3' end (TdT); probe letters rebuilt from the primers and the genome. A general note: Mobility shift assays separate free from complexed probe on a gel.
In a further series the target is T1, Mst12 (UniProt Q96UQ9).
T1 sequence (looked up): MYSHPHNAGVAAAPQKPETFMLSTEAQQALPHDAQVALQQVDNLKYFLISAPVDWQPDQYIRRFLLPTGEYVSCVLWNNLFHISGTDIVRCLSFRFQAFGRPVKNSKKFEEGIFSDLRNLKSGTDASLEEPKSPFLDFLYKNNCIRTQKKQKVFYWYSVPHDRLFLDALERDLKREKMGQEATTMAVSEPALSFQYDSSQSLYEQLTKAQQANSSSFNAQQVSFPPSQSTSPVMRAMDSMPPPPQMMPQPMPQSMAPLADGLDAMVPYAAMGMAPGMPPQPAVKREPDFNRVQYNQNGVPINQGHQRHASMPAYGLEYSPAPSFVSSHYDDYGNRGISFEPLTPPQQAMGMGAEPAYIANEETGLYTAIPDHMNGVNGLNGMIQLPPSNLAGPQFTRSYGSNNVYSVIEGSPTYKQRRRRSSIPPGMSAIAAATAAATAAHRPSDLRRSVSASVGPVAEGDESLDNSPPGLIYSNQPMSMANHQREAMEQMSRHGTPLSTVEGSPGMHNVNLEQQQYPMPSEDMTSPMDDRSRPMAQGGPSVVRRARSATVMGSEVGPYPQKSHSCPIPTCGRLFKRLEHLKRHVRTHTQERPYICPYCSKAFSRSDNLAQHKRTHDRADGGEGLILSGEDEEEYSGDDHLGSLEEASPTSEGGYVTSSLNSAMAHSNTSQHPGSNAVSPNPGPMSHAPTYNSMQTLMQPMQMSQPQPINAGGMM
The series is described as follows: EMSA. The conditions noted are these: recombinant protein; residues 1-715; protein details: His (modified pET28, HisTrap); label: biotin-11-UTP 3' end (TdT); probe letters rebuilt from the primers and the genome.

“CGTGTGTGTACCCCACAAGCTAGCCCATGCTGGTTCTTAAACTCGCATGCGTCCCGCTTGGTGAAGATCAAGCAAAACCTCTGACATGCTAAATACCCCAACTGCCTCACAACGCCTCCTGAATCTCGCCCTCGTCCGTTTGTCTGATCCTCAAACAACCATCCATGCCGAACCGAACCACTGTCACAGTGAAATCGACTTTTTGGCTACACCTTTTCCGTGTTTGCCCTGCGCAATAGTACTAGGAATTGCGCCCCGCCTAACCGCCCCTTCAGGCATCTCGCTTGCTCCTGGACCTCTCCACCCAAGAAACAGCGAATCCGTATCATGCCGTCCGGATGCCTGCTGCCATCATAGACCAGATCAGCAGGACGTGGATCACAAACGACACCATTCTAAGGGGCGTCGCCTCACCAAATAAAAAAAAACATCCGACACAGACCCCGGCCTGTCAGAACAAGCTCGTCTGTTACGTCGTCGGTAC / CGACGACGTAACAGACGAGCTTGTTCTGACAGGCCGGGGTCTGTGTCGGATGTTTTTTTTTATTTGGTGAGGCGACGCCCCTTAGAATGGTGTCGTTTGTGATCCACGTCCTGCTGATCTGGTCTATGATGGCAGCAGGCATCCGGACGGCATGATACGGATTCGCTGTTTCTTGGGTGGAGAGGTCCAGGAGCAAGCGAGATGCCTGAAGGGGCGGTTAGGCGGGGCGCAATTCCTAGTACTATTGCGCAGGGCAAACACGGAAAAGGTGTAGCCAAAAAGTCGATTTCACTGTGACAGTGGTTCGGTTCGGCATGGATGGTTGTTTGAGGATCAGACAAACGGACGAGGGCGAGATTCAGGAGGCGTTGTGAGGCAGTTGGGGTATTTAGCATGTCAGAGGTTTTGCTTGATCTTCACCAAGCGGGACGCATGCGAGTTTAAGAACCAGCATGGGCTAGCTTGTGGGGTACACACACGGTAC [NOXD promoter probe 1]”: the binding result in the series on Mst12 + Tpc1 and in the series with Mst12 was “binds” in each case.
